Experimental data taken from publication PMC7858072.
Construct, isoform or probe ends are uncertain for at least one entry.

Tested on: MBP-FhtR (apo) (Enterococcus faecalis OG1RF)
Test: EMSA
Settings: 2.5 pmol protein:0.25 pmol DNA, complete shift, only faster C1 complex; recombinant protein; residues 1-201; protein details: N-terminal MBP (pMAL-c4X); probe letters rebuilt from the primers and the genome

Sequence | binding result
CCAGCGAAAAACAGTGGATGACGATGTCAAAAAATTTATTCAATTTATGCTACATGGCGTTTTGAAAAGTCACAAATAAAAAATAGAGAAGCCCTGTTGAAAAACAGACTTCTCTATTTTTTTGTGAAATTCACACTTGTATACATAAATAATTATTGATTTATCGATTGATAAGTGATATAGTTTATTTCGAAAAGAAGAAAGAGGTGAACCATTCATGTTTTTAGGATTTAATGAAATGAAGTATTCAAAAGGACGGTACGTCCTTGTAGTCTTAGTAATGGTCTTGATTGCTTGGTTAATTTTTATTTTGTCAGGTTTAGCG (double strand) [PhrtBA P1*] | binds
CCAGCGAAAAACAGTGGATGACGATGTCAAAAAATTTATTCAATTTATGCTACATGGCGTTTTGAAAAGTCACAAATAAAAAATAGAGAAGCCCTGTTGAAAAACAGACTTCTCTATTTTTTTGTGAAATTCACTTATCAATCGATAAATAATTATTGATATATCTTGTATAAGGTGATATAGTTTATTTCGAAAAGAAGAAAGAGGTGAACCATTCATGTTTTTAGGATTTAATGAAATGAAGTATTCAAAAGGACGGTACGTCCTTGTAGTCTTAGTAATGGTCTTGATTGCTTGGTTAATTTTTATTTTGTCAGGTTTAGCG (double strand) [PhrtBA P2*] | binds
